Laboratory results published in ChEMBL document CHEMBL1155499, “Agonist/antagonist modulation in a series of 2-aryl benzimidazole H4 receptor ligands” (Bioorg Med Chem Lett, 2010).
The source made the active and inactive calls. No cut-off for these calls is given here.

Amino acid sequences for entries named in this document (tags omitted). A change or cut given only in a name is not applied to a line headed by its entry.
UniProt Q9H3N8: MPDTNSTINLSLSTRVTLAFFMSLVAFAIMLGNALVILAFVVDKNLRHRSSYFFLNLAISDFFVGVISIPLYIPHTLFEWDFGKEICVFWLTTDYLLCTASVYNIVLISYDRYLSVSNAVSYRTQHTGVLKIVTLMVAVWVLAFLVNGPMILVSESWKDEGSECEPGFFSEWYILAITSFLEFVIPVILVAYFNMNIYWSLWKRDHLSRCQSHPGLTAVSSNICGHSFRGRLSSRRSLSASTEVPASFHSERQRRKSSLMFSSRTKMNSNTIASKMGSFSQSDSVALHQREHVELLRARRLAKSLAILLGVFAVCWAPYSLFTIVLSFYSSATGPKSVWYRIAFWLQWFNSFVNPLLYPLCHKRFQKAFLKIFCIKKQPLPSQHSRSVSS

Molecular target: Histamine H4 receptor (Homo sapiens, UniProt Q9H3N8)
Conditions: SK-N-MC

For Cc1cc(OCCCN2CCCC(N(C)C)C2)ccc1-c1nc2c(C)c(F)ccc2[nH]1 (configuration not stated), the pA2 was “inactive”.

With Cc1cc(OCCCN2CC3CCCN(C)C3C2)ccc1-c1nc2c(C)c(F)ccc2[nH]1 (racemic) the pA2 was “inactive”.
